Pooled drug test results. Numbers come from NIAID ChemDB, via PubChem.

Shared fields: tests in culture; species: HIV-2; strain: ROD; cells: MT-4; method: MTT; read-out: EC50

ECn is the concentration giving n% inhibition of infection, replication or growth. Neighbouring rows are from separate reports.

COc1cc(/C=C/c2nc(NC(=S)Nc3ccccc3Cl)c3ccccc3n2)cc(OC)c1OC ; result: >3.85 µg/mL
Clc1ccc(-c2nnc3sc(-c4ccco4)nn23)cc1Cl ; result: >27.2 µg/mL
CN(C)c1ccc(/C=C/C(=O)C2CCC3C4CC=C5C[C@@H](O)CC[C@]5(C)C4CC[C@]23C)c(Cl)c1 ; result: >12.95 µM
Oc1ccc(-c2nnc3sc(-c4ccc[nH]4)nn23)c(Cl)c1Cl ; result: >68.48 µg/mL
Cc1cc(C#N)cc(C)c1Oc1nc(NC2CCN(S(N)(=O)=O)CC2)nc2ccsc12 ; result: >20.35 µM
CCOC(=O)CNc1nc(NC(=O)Nc2ccc(Br)cc2)nc(Oc2cc(=O)oc3ccccc23)n1 ; result: >125 µg/mL
Nn1c(-c2cccc(Br)c2)n[nH]c1=S ; result: >75.4 µg/mL
C[C@]12CCC3C(CC=C4CC(O)CC[C@@]43C)C1CCC2C(=O)/C=C/c1ccc(/C=C/C(=O)C2CCC3CCC4C(CC=C5C[C@@H](O)CC[C@@]54C)[C@]32C)cc1 ; result: >47.75 µM
Cc1ccc(-c2nc(-c3nnc(C45CCC6CC(CC4C6)C5)o3)cs2)cc1 ; result: >105.7 µM
N#Cc1ccc(-c2csc(N/N=C/c3ccncc3)n2)cc1 ; result: >53.1 µM
Fc1ccccc1-c1nc(-c2nnc(C34CCC5CC(CC3C5)C4)o2)cs1 ; result: >97.6 µM
COc1ccc(NC(=S)Nc2nc(NCCc3ccc(OC)c(OC)c3)nc(Oc3cc(=O)oc4ccccc34)n2)cc1 ; result: >56.45 µg/mL
Cc1cc(C#N)cc(C)c1Oc1nc(NC2CCN(S(=O)(=O)c3ccc([N+](=O)[O-])cc3)CC2)nc2ccsc12 ; result: >81.73 µM
CC(=O)Nc1cnc(Oc2c(C)cc(C#N)cc2C)nc1Nc1ccc(C#N)cc1 ; result: >313 µM
Cn1c(-c2ccc(F)c(F)c2)cc(N)nc1=O ; result: >16.01 µM
C=Cn1cc(C(=O)O)c(=O)c2cc(N)c(N3CCN(c4ccccn4)CC3)cc21 ; result: 0.038 µM
CC(=O)Nc1cnc(Oc2c(Br)cc(Br)cc2Br)nc1Nc1ccc(C#N)cc1 ; result: >118 µM
C/C(=N\Nc1nc(-c2ccc(Cl)cc2)cs1)c1ccc(-n2ccnc2)cc1 ; result: >92.25 µM
COc1ccc(CCNc2nc(NC(=O)Nc3ccc4ccccc4c3)nc(Oc3cc(=O)oc4ccccc34)n2)cc1OC ; result: >12.85 µg/mL
COc1cc(/C=C/c2nc(NC(=O)Nc3cccc(C)c3)c3ccccc3n2)cc(OC)c1OC ; result: >0.96 µg/mL
CCNc1c(N=Nc2ccc(-c3ccc(OC)c(OC)c3)cc2)c(N)nc(=O)n1C ; result: >23.13 µM
CC(=O)Nc1cnc(Oc2c(Cl)cc(Cl)cc2Cl)nc1Nc1ccc(C#N)cc1 ; result: >33 µM
C[C@]12CCC3C(CC=C4CC(O)CC[C@@]43C)C1CCC2C1=NN(C(N)=S)C(c2ccc(C(F)(F)F)cc2)C1 ; result: >7.92 µM
COc1cc(/C=C/c2nc(NC(=S)Nc3ccc(Cl)cc3)c3ccccc3n2)cc(OC)c1OC ; result: >1.73 µg/mL
Nc1cc2c(=O)c(C(=O)O)cn(N)c2cc1N1CCN(c2ccccn2)CC1 ; result: 1.33 µM
N#Cc1ccc(Nc2nc(Oc3c(Br)cc(Br)cc3Br)ncc2[N+](=O)[O-])cc1 ; result: >20 µM
C[C@H](CS)C(=O)N1CCC[C@@H]1c1nc2ncccc2[nH]1 ; result: >4.24 µg/mL
Cc1ccc(/C=C/C(=O)C2CCC3C4CC=C5C[C@@H](O)CC[C@]5(C)C4CC[C@]23C)cc1 ; result: >51.7 µM
Cc1cc(C#N)cc(C)c1Oc1nc(Nc2ccc(NS(=O)(=O)c3ccc4ccccc4c3)cc2)nc2ccsc12 ; result: 157.6 µM
Nc1ccc(-c2n[nH]c(=S)n2N)cc1 ; result: >12 µg/mL
N#Cc1ccc(-c2csc(N/N=C/c3ccc([N+](=O)[O-])cc3)n2)cc1 ; result: >10.55 µM
CCN(CC)c1c(N=Nc2ccc(Cl)cc2)c(N)nc(=O)n1C ; result: >100 µM
Clc1ccc(-c2nnc3n2N=C(c2ccccc2)CS3)cc1Cl ; result: >1.97 µg/mL
COc1cc(/C=C/c2nc(NC(=O)Nc3ccccc3C)c3ccccc3n2)cc(OC)c1OC ; result: >1.89 µg/mL
COc1ccc(CCNc2nc(NC(=O)Nc3ccc(Cl)cc3)nc(Oc3cc(=O)oc4ccccc34)n2)cc1OC ; result: >35.43 µg/mL
CC(=O)Nc1cnc(Oc2c(C)cc(C=O)cc2C)nc1Nc1ccc(C#N)cc1 ; result: >236 µM
C(=N\Nc1nc(-c2ccccc2)cs1)/c1ccco1 ; result: >11.3 µM
CCOC(=O)c1ccc(-c2ccc(N=Nc3c(N)nc(=O)n(C)c3-c3ccc(C(=O)OCC)cc3)cc2)cc1 ; result: >28.24 µM
COc1cc(/C=C/c2nc(NC(=S)Nc3cccc(Cl)c3)c3ccccc3n2)cc(OC)c1OC ; result: >3.25 µg/mL
Cc1cc(C#N)cc(C)c1Oc1nc(NC2CCN(S(=O)(=O)c3ccc(N)cc3)CC2)nc2ccsc12 ; result: 110.5 µM
N#Cc1ccc(Nc2nc(Oc3c(Br)cc(Br)cc3Br)ncc2NC(=O)C(F)(F)F)cc1 ; result: >17 µM
N#Cc1ccc(-c2csc(N/N=C/c3ccccn3)n2)cc1 ; result: >1.71 µM
COc1cc(/C=C/c2nc(NC(=O)Nc3ccccc3Cl)c3ccccc3n2)cc(OC)c1OC ; result: >1.69 µg/mL
Clc1cccc(-c2nc(-c3nnc(C45CCC6CC(CC4C6)C5)o3)cs2)c1 ; result: >125 µM
CCOC(=O)CNc1nc(Nc2ccc(Br)cc2)nc(Oc2cc(=O)oc3ccccc23)n1 ; result: >51.28 µg/mL
CCc1nc([N+](=O)[O-])c(N2CCN(C(=O)CSC[C@@H](C)C(=O)N3CCC[C@@H]3C(=O)O)CC2)n1Cc1ccccc1 ; result: >2.23 µg/mL
Cc1cc(C#N)cc(C)c1Oc1nc(Nc2ccc(C#N)cc2)nc(N)c1Br ; result: >4.585 µM
COc1ccc(CCNc2nc(NC(=S)Nc3cccc(Cl)c3)nc(Oc3cc(=O)oc4ccccc34)n2)cc1OC ; result: >16.78 µg/mL
COc1ccc(NC(=O)Nc2nc(/C=C/c3cc(OC)c(OC)c(OC)c3)nc3ccccc23)cc1 ; result: >1.88 µg/mL
C[C@H](CSCCN1C(=O)c2ccccc2C1=O)C(=O)N1CCC[C@@H]1C(=O)O ; result: >22.43 µg/mL
C=Cn1cc(C(=O)O)c(=O)c2ccc(N3CCN(c4cccc(C(F)(F)F)c4)CC3)cc21 ; result: 0.55 µM
Brc1ccc(-c2nc(-c3nnc(C45CCC6CC(CC4C6)C5)o3)cs2)cc1 ; result: >110 µM
CN1C(=O)[C@]2(C[C@@H]2c2ccc(Cl)cc2)c2ccccc21 ; result: >7.6 µg/mL
C[C@H](CS)C(=O)N1CCC[C@@H]1c1nc2ccccc2s1 ; result: >15.8 µg/mL
Cc1cc(C#N)cc(C)c1Oc1nc(NC2CCN(S(=O)(=O)c3ccccc3)CC2)nc2ccsc12 ; result: >6.185 µM
Oc1ccccc1/C=N/Nc1nc(-c2ccc(Cl)cc2)cs1 ; result: >102 µM
Cc1cc(C#N)cc(C)c1Oc1nc(Nc2ccc(NS(=O)(=O)c3ccc(-c4ccccc4)cc3)cc2)nc2ccsc12 ; result: 148.8 µM
COc1ccc(NC(=S)Nc2nc(/C=C/c3cc(OC)c(OC)c(OC)c3)nc3ccccc23)cc1 ; result: >4.43 µg/mL
Cn1c(N2CCNCC2)c(N=Nc2ccc(Cl)cc2)c(N)nc1=O ; result: >3.03 µM
CN1C(=O)[C@]2(C[C@@H]2c2ccccc2)c2cc(Cl)ccc21 ; result: >10.24 µg/mL
COc1ccccc1NC(=S)Nc1nc(NCCc2ccc(OC)c(OC)c2)nc(Oc2cc(=O)oc3ccccc23)n1 ; result: >19.63 µg/mL
Nc1cc2c(=O)c(C(=O)O)cn(N)c2cc1N1CCN(c2cccc(C(F)(F)F)c2)CC1 ; result: >4.49 µM
Fc1ccc(-c2nc(-c3nnc(C45CCC6CC(CC4C6)C5)o3)cs2)cc1 ; result: >75.2 µM

Repeating the final 8 entries:

compound	result
Oc1ccccc1/C=N/Nc1nc(-c2ccc(Cl)cc2)cs1	>102 µM
Cc1cc(C#N)cc(C)c1Oc1nc(Nc2ccc(NS(=O)(=O)c3ccc(-c4ccccc4)cc3)cc2)nc2ccsc12	148.8 µM
COc1ccc(NC(=S)Nc2nc(/C=C/c3cc(OC)c(OC)c(OC)c3)nc3ccccc23)cc1	>4.43 µg/mL
Cn1c(N2CCNCC2)c(N=Nc2ccc(Cl)cc2)c(N)nc1=O	>3.03 µM
CN1C(=O)[C@]2(C[C@@H]2c2ccccc2)c2cc(Cl)ccc21	>10.24 µg/mL
COc1ccccc1NC(=S)Nc1nc(NCCc2ccc(OC)c(OC)c2)nc(Oc2cc(=O)oc3ccccc23)n1	>19.63 µg/mL
Nc1cc2c(=O)c(C(=O)O)cn(N)c2cc1N1CCN(c2cccc(C(F)(F)F)c2)CC1	>4.49 µM
Fc1ccc(-c2nc(-c3nnc(C45CCC6CC(CC4C6)C5)o3)cs2)cc1	>75.2 µM